Measured values from several laboratories, pooled; numbers as filed in NIAID ChemDB.

Rows are shuffled and stem from different studies.

smiles	organism	dose	protein	cells	test	read by	strain	read-out	value
C=CCc1ccc(O)c(OC)c1	Candida glabrata				culture	turbidity	2622	MIC90	500 µg/mL
Cc1ccc(N2CCN(c3cncc(-c4ccc5ccccc5c4)n3)CC2)c(C)c1	Cytomegalovirus		UL97 kinase		target			IC50	<100 µM
O=C(O)c1ccc(S(=O)(=O)[O-])cc1C(=O)O	Herpes simplex virus	50 µg/mL		Human amnion AV3 cells	culture	cytopathic effect		inhibition	10%
Cc1cc(CCCOc2c(C)cc(-c3noc(C(F)(F)F)n3)cc2C)on1	Rhinovirus			OHIO HELA-I	culture	cytopathic effect / visual reading	Isolate 33	EC50	0.02 µg/mL
FC(F)(F)c1cc(-c2cncc(N3CCN(c4ccccc4)CC3)n2)cc(C(F)(F)F)c1	Cytomegalovirus		UL97 kinase		target			IC50	<100 µM
CCO/N=C/c1ccc(OCCC2CCN(c3ccc(Cl)nn3)CC2)cc1	Rhinovirus			KB	culture	neutral red	Norman (ICAM-1 receptor group 5)	EC50	0.008 µM
O=S(=O)(O)c1ccc(N=Nc2c(O)ccc3cc(S(=O)(=O)O)ccc23)cc1	Adenovirus	50 µg/mL		Human embryonic lung cells	culture	cytopathic effect	TYPE 3	inhibition	0%
CCC(CC)O[C@@H]1C=C(C(=O)O)C[C@H](N)[C@H]1NC(C)=O	Influenza A virus			MDCK	culture		Influenza A/Sydney/05/97 (H3N2)	EC50	0.31 µM
O=S(=O)([O-])c1cccc(O)c1	Rhinovirus	5 µg/mL		Human embryonic lung cells	culture	cytopathic effect		inhibition	0%
c1ccc(N2CCN(c3cncc(-c4ccsc4)n3)CC2)nc1	Cytomegalovirus		UL97 kinase		target			IC50	<10 µM
Fc1ccc(N2CCCCC2)c(NC(=S)c2ccncc2)c1		10 µM	NuaK1		host protein	kinase activity		inhibition	7.2%
O=S(=O)([O-])c1ccc(NS(=O)(=O)c2ccccc2)c2c(S(=O)(=O)[O-])cccc12	Rhinovirus	5 µg/mL		Human amnion AV3 cells	culture	cytopathic effect		inhibition	20%
CSc1ccc(-c2cncc(N3CCN(c4ccc(F)cc4F)CC3)n2)cc1	Cytomegalovirus	1 µM	UL97 kinase		target			inhibition	<50%
Cc1cc(-c2ccc(N=Nc3c(S(=O)(=O)O)cc4cc(S(=O)(=O)O)cc(N)c4c3O)c(C)c2)ccc1N=Nc1c(S(=O)(=O)O)cc2cc(S(=O)(=O)O)cc(N)c2c1O	Herpes simplex virus	5 µg/mL		Human conjunctiva cells	culture	cytopathic effect		inhibition	30%
FC(F)(F)c1ccc(-c2cncc(N3CCN(c4ccccc4)CC3)n2)cc1	Cytomegalovirus	1 µM	UL97 kinase		target			inhibition	<50%

The first 2 rows once more:

smiles	organism	dose	protein	cells	test	read by	strain	read-out	value
C=CCc1ccc(O)c(OC)c1	Candida glabrata				culture	turbidity	2622	MIC90	500 µg/mL
Cc1ccc(N2CCN(c3cncc(-c4ccc5ccccc5c4)n3)CC2)c(C)c1	Cytomegalovirus		UL97 kinase		target			IC50	<100 µM

MIC50, MIC90 and the like: level of inhibition, or share of isolates inhibited. ECn: concentration that inhibits the pathogen or its effect by n%. Blank or dashed fields: not listed here. Percent inhibition refers to the dose given; in toxicity tests it is the harm to the cells. ICn: concentration for n% inhibition.